Here are results for two molecules from US20200024330A1.

What all share (experiment): cell-based or functional assay
Test [1] deals with Env of all HIV-1 pseudoviruses of the cross-clade 162-pseudovirus panel (n = 162).
Test [2] addresses Env of the clade A HIV-1 pseudoviruses of the cross-clade 162-pseudovirus panel (n = 26).
The target in test [3] is Env of the clade AG HIV-1 pseudoviruses of the cross-clade 162-pseudovirus panel (n = 10).
Test [4] concerns the target Env of the clade B HIV-1 pseudoviruses of the cross-clade 162-pseudovirus panel (n = 31).
For test [5], the target named is Env of the clade C HIV-1 pseudoviruses of the cross-clade 162-pseudovirus panel (n = 27).
Test [6] deals with Env of the clade D HIV-1 pseudoviruses of the cross-clade 162-pseudovirus panel (n = 25).
Test [7] deals with Env of the clade F HIV-1 pseudoviruses of the cross-clade 162-pseudovirus panel (n = 15).
Test [8] addresses Env of the clade G HIV-1 pseudoviruses of the cross-clade 162-pseudovirus panel (n = 15).

B1: PGT-122 (antibody, V domains shown)
VH: QVHLQESGPGLVKPSETLSLTCNVSGTLVRDNYWSWIRQPLGKQPEWIGYVHDSGDTNYNPSLKSRVHLSLDKSKNLVSLRLTGVTAADSAIYYCATTKHGRRIYGVVAFKEWFTYFYMDVWGKGTSVTVSS
VL: TFVSVAPGQTARITCGEESLGSRSVIWYQQRPGQAPSLIIYNNNDRPSGIPDRFSGSPGSTFGTTATLTITSVEAGDEADYYCHIWDSRRPTNWVFGEGTTLIVL
Consider B1, for which the Median IC50 against viruses neutralized with an IC50 <50 µg/ml stood at 0.05 µg/mL in test [1]; 0.07 µg/mL in test [2]; 2.75 µg/mL in test [3]; 0.02 µg/mL in test [4]; 0.03 µg/mL in test [5]; 0.02 µg/mL in test [6]. Besides, the Median IC50 against viruses neutralized with an IC50 <50 µg/ml in test [7] is 0.43 µg/mL; in test [8] it was 0.05 µg/mL.

B2: PGT-121 (antibody, V domains shown)
VH: QMQLQESGPGLVKPSETLSLTCSVSGASISDSYWSWIRRSPGKGLEWIGYVHKSGDTNYSPSLKSRVNLSLDTSKNQVSLSLVAATAADSGKYYCARTLHGRRIYGIVAFNEWFTYFYMDVWGNGTQVTVSS
VL: SDISVAPGETARISCGEKSLGSRAVQWYQHRAGQAPSLIIYNNQDRPSGIPERFSGSPDSPFGTTATLTITSVEAGDEADYYCHIWDSRVPTKWVFGGGTTLTVL
Consider B2, for which the Median IC50 against viruses neutralized with an IC50 <50 µg/ml in test [1] turned out to be 0.03 µg/mL; in test [2], 0.02 µg/mL; in test [3] it was 0.49 µg/mL; in test [4] it was 0.02 µg/mL; in test [5], 0.02 µg/mL; in test [6] it was 0.01 µg/mL. Also, the Median IC50 against viruses neutralized with an IC50 <50 µg/ml turned out to be 0.13 µg/mL in test [7] and 0.02 µg/mL in test [8].
